Pooled drug test results. Numbers come from NIAID ChemDB, via PubChem.

Shared fields: tests in culture; organism: Herpes simplex virus 2; method: cytopathic effect; measure: EC50

Blank or dashed fields: not listed here. Neighbouring rows are from separate reports. ECn: concentration that inhibits the pathogen or its effect by n%.

smiles | strain or isolate | cell line | result
O=c1c2ncn(COCCO)c2nc2[nH]c(-c3ccccc3)c(-c3ccc(C(c4ccccc4)c4ccccc4)cc3)n12 | LYONS | - | >16 µg/mL
O=c1[nH]c(=O)n([C@H]2C[C@H](O)[C@@H](CO)O2)cc1/C=C/Br | G | HEL | >300 µM
Cc1cn([C@@H]2O[C@H](CO)[C@@H](O)[C@@H]2O)c(=O)[nH]c1=O | HG-52 | HELF | 0.66 µg/mL
CC(C)NS(=O)(=O)c1ccccc1C(=O)N/N=C/c1ccc(-c2cccs2)cc1 | G | HEL | >100 µM
CCc1cn([C@H]2C[C@H](O)[C@@H](COP(=O)(O)O)O2)c(=O)[nH]c1=O | G | PRK | 0.4 µg/mL
Cc1cc([C@@H]2C[C@H](O)[C@@H](CO)O2)c(Cl)cc1F | LYONS | E6SM | >400 µg/mL
CSCc1cn([C@H]2C[C@H](O)[C@@H](CO)O2)c(=O)[nH]c1=O | VCX304 | PRK | 4 µg/mL
OC[C@H]1O[C@@H](c2ccccc2)C[C@@H]1O | G | E6SM | >400 µg/mL
[N-]=[N+]=NCc1cn([C@H]2C[C@H](O)[C@@H](CO)O2)c(=O)[nH]c1=O | VCX301 | PRK | 4 µg/mL
OC[C@H]1O[C@@H](c2cc(Br)c(F)cc2F)C[C@@H]1O | G | E6SM | >400 µg/mL
CO[C@H](CO)[C@@H](O)CCn1cnc2c(=O)[nH]c(N)nc21 | G | E6SM | >400 µg/mL
CCc1cn([C@H]2C[C@H](O)[C@@H](CO)O2)c(N)nc1=O | 196 | PRK | >400 µg/mL
COc1ccc(-c2cn3c(=O)c4ncn(COC(CO)CO)c4nc3[nH]2)cc1 | LYONS | - | 0.02 µg/mL
C=Cc1cc([C@H]2C[C@H](O)[C@@H](CO)O2)c(F)cc1F | LYONS | E6SM | >400 µg/mL
Nc1nc2c(nc(N)n2COCCO)c(=O)[nH]1 | - | PRK | 0.3 µg/mL
O=c1[nH]c(=O)n([C@H]2C[C@H](O)[C@@H](CO)O2)cc1I | VCX301 | PRK | 0.3 µg/mL
CO[C@H](CO)[C@@H](O)CCn1ccc(N)nc1=O | LYONS | E6SM | >400 µg/mL
CCc1cc([C@H]2C[C@H](O)[C@@H](CO)O2)c(F)cc1F | G | E6SM | >400 µg/mL
O=c1[nH]c(=O)n([C@H]2C[C@H](O)[C@@H](CO)O2)cc1/C=C/Br | G | HEL | 183 µM
Cc1c(-c2ccc(C(F)(F)F)cc2)[nH]c2nc3c(ncn3COCCO)c(=O)n12 | LYONS | HEL | 9.6 µg/mL
Cc1cn([C@@H]2O[C@H](CO)[C@@H](O)[C@@H]2F)c(=O)[nH]c1=O | G | PRK | <0.02 µg/mL
O=c1[nH]c(=O)n(COCCO)cc1/C=C/Br | - | PRK | >400 µg/mL
Nc1nc2c(ncn2COCCO)c(=O)[nH]1 | LYONS | PRK | 0.06 µg/mL
CC(=O)OCCOCn1cnc2c(=O)n3cc(-c4ccc5ccccc5c4)[nH]c3nc21 | G | - | >16 µg/mL
Nc1nc2c(ncn2COCCO)c(=O)[nH]1 | MS | VERO | 1.25 µg/mL
Nc1nc(=O)n(C2CC(O)C(CO)O2)cc1CCCl | G | PRK | 8.7 µg/mL
Nc1ncnc2c1c(Br)cn2COCCO | - | HEF | 10 µM
Cc1cn(CC[C@H](O)CCO)c(=O)[nH]c1=O | 196 | E6SM | >400 µg/mL
Nc1nc2c(ncn2[C@H]2C=C[C@@H](CO)[C@H](O)C2)c(=O)[nH]1 | G | E6SM | 0.07 µg/mL
O=c1c2ncn(COCCO)c2nc2[nH]c(-c3ccc(F)cc3)cn12 | LYONS | HEL | >16 µg/mL
[N-]=[N+]=NC(CBr)c1cc([C@H]2C[C@H](O)[C@@H](CO)O2)c(F)cc1F | 196 | E6SM | >400 µg/mL
C/C(=N/NC(N)=S)c1ccc(NC(=O)CN2C(=O)c3ccccc3S2(=O)=O)cc1 | G | HEL | >100 µM
O=c1[nH]c(=O)n([C@@H]2O[C@H](CO)[C@@H](O)[C@@H]2O)cc1/C=C/Br | 196 | PRK | 70 µg/mL
OC[C@H]1O[C@H](c2cc(I)c(F)cc2F)C[C@@H]1O | 196 | E6SM | >400 µg/mL
O=c1[nH]c(=O)n([C@H]2C[C@H](O)[C@@H](CO)O2)cc1/C=C/Br | 196 | E6SM | >80 µg/mL
Nc1nc2c(ncn2COCCO)c(=O)[nH]1 | G | HEL | 0.4 µM
CCc1cn([C@H]2C[C@H](O)[C@@H](CO)O2)c(=O)[nH]c1=O | LYONS | PRK | 4 µg/mL
Nc1nc2c(ncn2COCCOP(=O)(O)O[C@@H]2[C@H](O)[C@@H](COP(=O)(O)O[C@@H]3[C@H](O)[C@@H](CO)O[C@H]3n3cnc4c(N)ncnc43)O[C@H]2n2cnc3c(N)ncnc32)c(=O)[nH]1 | 196 | PRK | 0.7 µg/mL
Nc1ncnc2c1ncn2COCCO | - | PRK | 10 µg/mL
O=c1c2ncn(COC(CO)CO)c2nc2[nH]c(-c3ccccc3)cn12 | LYONS | - | 0.005 µg/mL
Cc1cc([C@@H]2C[C@H](O)[C@@H](CO)O2)c(F)cc1Cl | G | E6SM | >400 µg/mL
OC[C@H]1O[C@@H](c2ccccc2)[C@H](O)[C@@H]1O | G | E6SM | >400 µg/mL
O=c1[nH]c(=O)n([C@H]2C[C@H](O)[C@@H](CO)O2)cc1/C=C/Br | 196 | PRK | 25 µg/mL
O=c1c2ncn(COCCO)c2nc2[nH]c(-c3ccccc3)c(Cc3ccccc3)n12 | LYONS | HEL | >16 µg/mL
O=Cc1cn([C@H]2C[C@H](O)[C@@H](CO)O2)c(=O)[nH]c1=O | G | PRK | 1 µg/mL
CO[C@H]1[C@H]2O[Si](C(C)C)(C(C)C)O[Si](C(C)C)(C(C)C)OC[C@@H]2O[C@@H]1c1ccccc1 | G | E6SM | >16 µg/mL
O=c1cc(O)ccn1COCCO | - | PRK | >400 µg/mL
O=c1c2ncn(COCCO)c2[nH]c2ncc(C(c3ccccc3)(c3ccccc3)c3ccccc3)n12 | LYONS | - | >16 µg/mL
Nc1nc2c(ncn2COCCO)c(=O)[nH]1 | T43648 (acyclovir-susceptible) | HFF | 2.5 µg/mL
Nc1nc2c(ncn2COC(CO)CO)c(=O)[nH]1 | HS-47 (TK+) | HEL | 0.0056 µM
CO[C@H](CO)[C@@H](O)CCn1cnc2c(N)ncnc21 | 196 | E6SM | >400 µg/mL
Nc1ncnc2c1ncn2[C@@H]1O[C@H](CO)[C@@H](O)[C@H]1OP(=O)(O)OC[C@H]1O[C@@H](n2cnc3c(N)ncnc32)[C@H](OP(=O)(O)OC[C@H]2O[C@@H](n3cc(F)c(=O)[nH]c3=O)C[C@@H]2O)[C@@H]1O | 196 | PRK | >100 µg/mL
O=c1[nH]c(=O)n([C@H]2C[C@H](O)[C@@H](CO)O2)cc1/C=C/Br | 196 | PRK | 70 µg/mL
COC(=O)[C@H](C)NP(=O)(OC[C@H]1O[C@@H](n2cc(/C=C/Br)c(=O)[nH]c2=O)C[C@@H]1O)Oc1ccc(Cl)cc1 | G | E6SM | >16 µM
Cc1c(-c2ccc(F)cc2)[nH]c2nc3c(ncn3COCCO)c(=O)n12 | G | HEL | 1.92 µg/mL
COC(=O)[C@H](C)NP(=O)(OC[C@H]1O[C@@H](n2cc(/C=C/Br)c(=O)[nH]c2=O)C[C@@H]1O)Oc1ccccc1 | G | E6SM | >48 µM
O=c1[nH]c(=O)n([C@H]2C[C@H](O)[C@@H](CO)O2)cc1I | K979 | VERO | <1 µg/mL
OC[C@H]1O[C@@H](c2cc(Cl)c(F)cc2F)C[C@@H]1O | LYONS | E6SM | >400 µg/mL
O=c1[nH]c(=O)n([C@H]2C[C@H](O)[C@@H](CO)O2)cc1/C=C/Br | K979 | VERO | <30 µg/mL
Cc1cc([C@H]2C[C@H](O)[C@@H](CO)O2)c(F)cc1F | G | E6SM | >400 µg/mL

The first 7 rows once more:

{"smiles": "O=c1c2ncn(COCCO)c2nc2[nH]c(-c3ccccc3)c(-c3ccc(C(c4ccccc4)c4ccccc4)cc3)n12", "strain or isolate": "LYONS", "result": ">16 µg/mL"}
{"smiles": "O=c1[nH]c(=O)n([C@H]2C[C@H](O)[C@@H](CO)O2)cc1/C=C/Br", "strain or isolate": "G", "cell line": "HEL", "result": ">300 µM"}
{"smiles": "Cc1cn([C@@H]2O[C@H](CO)[C@@H](O)[C@@H]2O)c(=O)[nH]c1=O", "strain or isolate": "HG-52", "cell line": "HELF", "result": "0.66 µg/mL"}
{"smiles": "CC(C)NS(=O)(=O)c1ccccc1C(=O)N/N=C/c1ccc(-c2cccs2)cc1", "strain or isolate": "G", "cell line": "HEL", "result": ">100 µM"}
{"smiles": "CCc1cn([C@H]2C[C@H](O)[C@@H](COP(=O)(O)O)O2)c(=O)[nH]c1=O", "strain or isolate": "G", "cell line": "PRK", "result": "0.4 µg/mL"}
{"smiles": "Cc1cc([C@@H]2C[C@H](O)[C@@H](CO)O2)c(Cl)cc1F", "strain or isolate": "LYONS", "cell line": "E6SM", "result": ">400 µg/mL"}
{"smiles": "CSCc1cn([C@H]2C[C@H](O)[C@@H](CO)O2)c(=O)[nH]c1=O", "strain or isolate": "VCX304", "cell line": "PRK", "result": "4 µg/mL"}